PubChem BioAssay AID624099, ICCB-Longwood – 2012

Test: 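Host factors E2 relies on to silence an HPV18 LCR reporter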 (primary screen)
Cells: human C33A cervical carcinoma cells (HPV-negative) stably expressing BPV1 E2 and an HPV18 LCR luciferase reporter
Reagents: siRNA pool against human genes, 40 nM
Duration: 72 h
Detection: 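Per-well luciferase luminescence, z-scored on each plate against the plate mean and SD with control wells left out, then averaged across three replicate plates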
Direction: mean z-score and z-score: higher = stronger reporter signal, weaker E2 silencing
Active means: 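Mean z ≥ 2 together with z ≥ 2 in two or more of the three replicates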
This is an unselected part of about 21,000 deposited reagents. Of all reagents, 497 (2.4%) got an active call. 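Higher z means weaker E2 silencing; only reporter increases were scored, and knock-downs that hurt cell survival may mask genuine repressor factors.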

ATP5ME (ATP synthase membrane subunit e) | mean z-score: 1.07; z-score, replicate A: 0.88; z-score, replicate B: 1.08; z-score, replicate C: 1.25; Outcome: inactive
ANAPC2 (anaphase promoting complex subunit 2) | mean z-score: -0.7; z-score, replicate A: -0.92; z-score, replicate B: -0.22; z-score, replicate C: -0.96; Outcome: inactive
ANGPTL4 (angiopoietin like 4) | mean z-score: 1.12; z-score, replicate A: 1.02; z-score, replicate B: 0.98; z-score, replicate C: 1.36; Outcome: inactive
ZFP90 (ZFP90 zinc finger protein) | mean z-score: -1.37; z-score, replicate A: -1.64; z-score, replicate B: -1.7; z-score, replicate C: -0.76; Outcome: inactive
IL27RA (interleukin 27 receptor subunit alpha) | mean z-score: -1.11; z-score, replicate A: -1.1; z-score, replicate B: -0.95; z-score, replicate C: -1.27; Outcome: inactive
OLFML3 (olfactomedin like 3) | mean z-score: 0.5; z-score, replicate A: 1.67; z-score, replicate B: -0.08; z-score, replicate C: -0.07; Outcome: inactive
DPPA3P1 (DPPA3 pseudogene 1) | mean z-score: 1.04; z-score, replicate A: 1.21; z-score, replicate B: 1.08; z-score, replicate C: 0.84; Outcome: inactive
GBX2 (gastrulation brain homeobox 2) | mean z-score: -1.41; z-score, replicate A: -1.15; z-score, replicate B: -1.48; z-score, replicate C: -1.61; Outcome: inactive
GOLGA6L2 (golgin A6 family like 2) | mean z-score: -0.16; z-score, replicate A: -0.39; z-score, replicate B: -0.13; z-score, replicate C: 0.03; Outcome: inactive
XKRYP7 (XK related, Y-linked pseudogene 7) | mean z-score: -0.81; z-score, replicate A: -0.71; z-score, replicate B: -0.62; z-score, replicate C: -1.11; Outcome: inactive
RPS5 (ribosomal protein S5) | mean z-score: -2.2; z-score, replicate A: -2.15; z-score, replicate B: -2.31; z-score, replicate C: -2.12; Outcome: inactive
GJA8 (gap junction protein alpha 8) | mean z-score: 0.35; z-score, replicate A: 0.54; z-score, replicate B: 0.15; z-score, replicate C: 0.36; Outcome: inactive
LOC284120 (retired record) | mean z-score: 0.43; z-score, replicate A: 0.15; z-score, replicate B: 0.44; z-score, replicate C: 0.69; Outcome: inactive
SPDYE12 (speedy/RINGO cell cycle regulator family member E12) | mean z-score: -0.25; z-score, replicate A: -0.66; z-score, replicate B: 0.48; z-score, replicate C: -0.59; Outcome: inactive
TMC8 (transmembrane channel like 8) | mean z-score: -0.98; z-score, replicate A: -1.04; z-score, replicate B: -0.81; z-score, replicate C: -1.09; Outcome: inactive
MIRLET7BHG (MIRLET7B and MIRLET7A3 host gene) | mean z-score: -0.11; z-score, replicate A: -0.13; z-score, replicate B: 0.36; z-score, replicate C: -0.57; Outcome: inactive
NOD2 (nucleotide binding oligomerization domain containing 2) | mean z-score: 0.38; z-score, replicate A: 0.24; z-score, replicate B: 0.4; z-score, replicate C: 0.5; Outcome: inactive
RPS2 (ribosomal protein S2) | mean z-score: -1.68; z-score, replicate A: -1.75; z-score, replicate B: -1.53; z-score, replicate C: -1.75; Outcome: inactive
H3C12 (H3 clustered histone 12) | mean z-score: -1.03; z-score, replicate A: -1.26; z-score, replicate B: -0.8; z-score, replicate C: -1.05; Outcome: inactive
LOC392467 (retired record) | mean z-score: 1.18; z-score, replicate A: 1.58; z-score, replicate B: 1.65; z-score, replicate C: 0.31; Outcome: inactive
LOC390282 | mean z-score: 0.7; z-score, replicate A: 0.63; z-score, replicate B: 0.38; z-score, replicate C: 1.08; Outcome: inactive
LOC389814 (retired record) | mean z-score: -0.38; z-score, replicate A: -0.5; z-score, replicate B: -0.53; z-score, replicate C: -0.11; Outcome: inactive
ASPH (aspartate beta-hydroxylase) | mean z-score: 1.53; z-score, replicate A: 1.25; z-score, replicate B: 1.35; z-score, replicate C: 1.99; Outcome: inactive
CCNE1 (cyclin E1) | mean z-score: 2.12; z-score, replicate A: 2.17; z-score, replicate B: 2.03; z-score, replicate C: 2.14; Outcome: active
PHLPP2 (PH domain and leucine rich repeat protein phosphatase 2) | mean z-score: -1.11; z-score, replicate A: -0.52; z-score, replicate B: -1.45; z-score, replicate C: -1.36; Outcome: inactive
FBXO8 (F-box protein 8) | mean z-score: -1.2; z-score, replicate A: -1.16; z-score, replicate B: -1.09; z-score, replicate C: -1.34; Outcome: inactive
SMC6 (structural maintenance of chromosomes 6) | mean z-score: -0.17; z-score, replicate A: -0.81; z-score, replicate B: 0.24; z-score, replicate C: 0.07; Outcome: inactive

Copied from the entries so far for reference:
GBX2 (gastrulation brain homeobox 2) | mean z-score: -1.41; z-score, replicate A: -1.15; z-score, replicate B: -1.48; z-score, replicate C: -1.61; Outcome: inactive
GOLGA6L2 (golgin A6 family like 2) | mean z-score: -0.16; z-score, replicate A: -0.39; z-score, replicate B: -0.13; z-score, replicate C: 0.03; Outcome: inactive
XKRYP7 (XK related, Y-linked pseudogene 7) | mean z-score: -0.81; z-score, replicate A: -0.71; z-score, replicate B: -0.62; z-score, replicate C: -1.11; Outcome: inactive
